Results of unrelated studies side by side (data: NIAID ChemDB).

Shared fields: tests in culture; species: HIV-1; cell line: TZM-bl; read-out: inhibition

Blank or dashed fields: not listed here. Neighbouring rows are from separate reports. Percent inhibition refers to the dose given; in toxicity tests it is the harm to the cells.

compound,strain,read by,tested at,value
N=C1Sc2ccccc2C2=NCCCN12,93BR021,β-galactosidase,4.26 µM,90%
Cc1ccc(C2=CC(c3cnc(C(C)C)cn3)SC(N)=N2)cc1,NL4-3,p24 / ELISA / antigen,10 µg/mL,23%
O=C(Cc1ccc(F)cc1)Nc1nc(-c2ccccc2)cs1,NL4-3,,50 µg/mL,54.82%
CC(C)(C)n1[nH]c(C(F)(F)F)cc(=O)c1=O,,MTT,10 µM,-11.6%
CC(C)c1cnc(C2C=C(c3cccc([N+](=O)[O-])c3)N=C(N)S2)cn1,NL4-3,p24 / ELISA / antigen,10 µg/mL,85%
Cc1nnc(C(=O)NC(C)(C)c2nc(C(=O)NCc3ccc(F)cc3)c(O)c(=O)n2C)o1,R9,luciferase / reporter gene,0.05 µM,80%
CC(C)c1cnc(C2C=C(c3ccccc3F)N=C(N)S2)cn1,NL4-3,p24 / ELISA / antigen,10 µg/mL,70%
COc1ccccc1/C=C/C(=O)c1ccccc1O,,luciferase,10 µM,0%
COc1c(C(=O)NCc2ccc(C)cc2)ccc2c1C(=O)N(C)C(c1ccc([N+](=O)[O-])cc1)N2,,MTT,10 µM,64.9%
Cc1ccccc1CC(=O)Nc1nc(-c2ccccc2)cs1,NL4-3,,50 µg/mL,80.65%
N=C1Sc2ccccc2C2=NCCCN12,92HT599,β-galactosidase,6.31 µM,90%
O=c1cc(C(F)(F)F)[nH]n(-c2ccc(F)cc2)c1=O,,MTT,10 µM,11.61%
O=C(Cc1ccc(Cl)cc1)Nc1nc(-c2ccccc2)cs1,NL4-3,,50 µg/mL,78.46%
CC(C)C[C@H](NC(=O)c1ccc(NC(=O)[C@H](Cc2c[nH]c3ccccc23)NC(=O)CCC(=O)NCCCCCCCCCCOCCNC(=O)CCC(=O)O)c(OCCc2c[nH]c3ccccc23)c1)C(=O)O,NL4-3,luciferase / cell fusion,50 µM,7%
CC(=O)Oc1ccc(/C=C/S(=O)(=O)CCc2ccc(NC(=O)c3ccc([N+](=O)[O-])cc3)cc2)cc1OC(C)=O,BaL,fluorescence,50 µM,<20%
CN(C(=O)Cc1sccc1F)c1nc2c(s1)CCCC2,NL4-3,luciferase,10 µM,94%
CC(C)c1cnc(C2C=C(c3cccc(Cl)c3)N=C(N)S2)cn1,NL4-3,p24 / ELISA / antigen,10 µg/mL,64%
COc1c(C(=O)NCc2ccc(C)cc2)ccc2c1C(=O)N(C)C(c1ccc(F)cc1)N2,,MTT,10 µM,31%
O=C(NCc1ccc(F)cc1)c1c(C(F)(F)F)[nH]n(Cc2cccs2)c(=O)c1=O,,MTT,10 µM,-7.5%
c1cc(CNCCCNC2CCCCC2)cc(CNc2nc(N3CCNCC3)nc3nc[nH]c23)c1,IIIB,luciferase,10 µM,2%
COc1cccc2c1C(=O)c1c(O)c3c(c(O)c1C2=O)C[C@@](O)(C(=O)CO)C[C@@H]3O[C@H]1C[C@H](N)[C@@H](O)[C@H](C)O1,,GFP,1 µM,17%
Cc1ccc(CC(=O)Nc2nc(-c3ccccc3)cs2)cc1,NL4-3,,50 µg/mL,84.45%
CO[C@H]1C[C@@H]2CC[C@@H](C)[C@@](O)(O2)C(=O)C(=O)N2CCCC[C@H]2C(=O)O[C@H]([C@H](C)C[C@@H]2CC[C@@H](O)[C@H](OC)C2)CC(=O)[C@H](C)/C=C(\C)[C@@H](O)[C@@H](OC)C(=O)[C@H](C)C[C@H](C)/C=C/C=C/C=C/1C,BaL,,0.1 µM,67%
Cc1ccccc1C1=CC(c2cnc(C(C)C)cn2)SC(N)=N1,NL4-3,p24 / ELISA / antigen,10 µg/mL,28%
COc1ccc(CC(=O)Nc2nc(-c3ccccc3)cs2)cc1,NL4-3,,50 µg/mL,97.21%

Repeating the first 3 entries:

compound | strain | read by | tested at | value
N=C1Sc2ccccc2C2=NCCCN12 | 93BR021 | β-galactosidase | 4.26 µM | 90%
Cc1ccc(C2=CC(c3cnc(C(C)C)cn3)SC(N)=N2)cc1 | NL4-3 | p24 / ELISA / antigen | 10 µg/mL | 23%
O=C(Cc1ccc(F)cc1)Nc1nc(-c2ccccc2)cs1 | NL4-3 |  | 50 µg/mL | 54.82%